Results published in patent publication US9198965B2 (priority 2008, dated 2015).

Test system: PR/8 virus
Experiment: Sedimentation density profiles (density gradient ultracentrifugation) of peptide-treated virus
Design: species or system A/PuertoRico/8/34 (PR/8, H1N1)
Conditions: PR/8 pretreated with 30 μM EB

RRKKAAVALLPAVLLALLAP [EB]
location of the HA antigen (sucrose fractions) (1 hour at 37° C.): 41-53 % sucrose
density at which majority of virus antigen detected (virus alone 1.14 g/cm^3): 1.20 g/mL
